Reference: patent US7105522B2, “HIV inhibiting pyrazinone derivatives” (Janssen Pharmaceutica, N.V., priority 2001, dated 2006)

System: HIV-1
Assay type: cell-based
Conditions: MT-4 cells
Description: A rapid, sensitive and automated assay procedure was used for the in vitro evaluation of anti-HIV agents. An […] T4-cell line, MT-4, which was previously shown (Koyanagi et al., Int. J. Cancer, 36, 445–451, 1985) to be highly susceptible to and permissive for HIV infection, served as the target cell line. Inhibition of the HIV-induced cytopathic effect was used as the end point. The viability of both HIV- and mock-infected cells was assessed spectrophotometrically via the in situ reduction of 3-(4,5-dimethylthiazol-2-yl)-2,5-diphenyltetrazolium bromide (MTT). The 50% cytotoxic concentration (CC50 in μM) was defined as the concentration of compound that reduced the absorbance of the mock-infected control sample by 50%. The percent protection achieved by the compound in HIV-infected cells was calculated by the following formula:
[formula] whereby (ODT)HIV is the optical density measured with a given concentration of the test compound in HIV-infected cells; (ODC)HIV is the optical density measured for the control untreated HIV-infected cells; (ODC)MOCK is the optical density measured for the control untreated mock-infected cells; all optical density values were determined at 540 nm. The dose achieving 50% protection according to the above formula was defined as the 50% inhibitory concentration (IC50 in μM). The ratio of CC50 to IC50 was defined as the selectivity index (SI).

Structure (SMILES)	SI (selectivity index, ratio of CC50 to IC50)
Cc1ccccc1Oc1cn(C)c(=O)c(Nc2ccc(C#N)cc2)n1 [Compound 2, 4-[[3,4-dihydro-4-methyl-6-(2-methylphenoxy)-3-oxopyrazinyl]amino]-benzonitrile]	25119
Cc1cc(C)c(S(=O)(=O)c2cn(C)c(=O)c(Nc3ccc(C#N)cc3)n2)c(C)c1 [Compound 15, 4-[[3,4-dihydro-4-methyl-3-oxo-6-[(2,4,6-trimethylphenyl)sulfonyl]pyrazinyl]amino]-benzonitrile]	12589
Cc1cc(C)c(Sc2cn(C)c(=O)c(Nc3ccc(C#N)cc3)n2)c(C)c1 [Compound 13, 4-[[3,4-dihydro-4-methyl-3-oxo-6-[(2,4,6-trimethylphenyl)thio]pyrazinyl]amino]-benzonitrile]	6310
Cc1ccc(Oc2cn(C)c(=O)c(Nc3ccc(C#N)cc3)n2)c(C)c1 [Compound 3, 4-[[6-(2,4-dimethylphenoxy)-3,4-dihydro-4-methyl-3-oxopyrazinyl]amino]-benzonitrile]	158489
Cc1ccc(Sc2cn(C)c(=O)c(Nc3ccc(C#N)cc3)n2)c(C)c1 [Compound 21, 4-[[6-[(2,4-dimethylphenyl)thio]-3,4-dihydro-4-methyl-3-oxopyrazinyl]amino]-benzonitrile]	19953
